Assay results from patent publication US6602861B1, “Acylated phospholipid drugs” (Research Corporation Technologies, Inc., priority 1992, dated 2003).
Like-named read-outs stand apart in the source and are kept apart here.

How the values were obtained:
HIV = conditions: syncytial cell assay
[1] = test system: HIV (S5G7, subclone of HTLVIIIB); conditions: reverse transcriptase assay

Substance: 1,2-(di-12-methoxydodecanoyl)-sn-3-phosphatidylcholine [L-AC2]
- Therapeutic Index MT4 cells (TC50/IC50) (HIV): 280
- Therapeutic Index PBMC (TC50/IC50) [1]: 37
- Therapeutic Index PBMC (TC50/IC50) ([1]; listed as AC2): 31
